The record followed here is patent US20070099199A1.

Where “and” joins values, the source holds several entries; their conditions need not be identical. Equal entries are not always repeated.

B1: GST-KIAA0561 PDZ domain 1 (protein)
chain: MSPILGYWKIKGLVQPTRLLLEYLEEKYEEHLYERDEGDKWRNKKFELGLEFPNLPYYIDGDVKLTQSMAIIRYIADKHNMLGGCPKERAEISMLEGAVLDIRYGVSRIAYSKDFETLKVDFLSKLPEMLKMFEDRLCHKTYLNGDHVTHPDFMLYDALDVVLYMDPMCLDAFPKLVCFKKRIEAIPQIDKYLKSSKYIAWPLQGWQATFGGGDHPPKSDLIEGRLCGSLRPPIVIHSSGKKYGFSLRAIRVYMGDSDVYTVHHVVWSVEDGSPAQEAGLRAGDLITHINGESVLGLVHMDVVELLLKSGNKISLRTTALENTSIKVG
B2: GST-Serine Protease PDZ domain 1 (protein)
chain: MSPILGYWKIKGLVQPTRLLLEYLEEKYEEHLYERDEGDKWRNKKFELGLEFPNLPYYIDGDVKLTQSMAIIRYIADKHNMLGGCPKERAEISMLEGAVLDIRYGVSRIAYSKDFETLKVDFLSKLPEMLKMFEDRLCHKTYLNGDHVTHPDFMLYDALDVVLYMDPMCLDAFPKLVCFKKRIEAIPQIDKYLKSSKYIAWPLQGWQATFGGGDHPPKSDLIEGRRGEKKNSSSGISGSQRRYIGVMMLTLSPSILAELQLREPSFPDVQHGVLIHKVILGSPAHRAGLRPGDVILAIGEQMVQNAEDVYEAVRTQSQLAVQIRRGRETLTLYV
B3: GST-EZRIN Binding Protein 50 PDZ domain 2, clone #168.2 (protein)
chain: MSPILGYWKIKGLVQPTRLLLEYLEEKYEEHLYERDEGDKWRNKKFELGLEFPNLPYYIDGDVKLTQSMAIIRYIADKHNMLGGCPKERAEISMLEGAVLDIRYGVSRIAYSKDFETLKVDFLSKLPEMLKMFEDRLCHKTYLNGDHVTHPDFMLYDALDVVLYMDPMCLDAFPKLVCFKKRIEAIPQIDKYLKSSKYIAWPLQGWQATFGGGDHPPKSDLIEGRIRLCTMKKGPSGYGFNLHSDKSKPGQFIRSVDPDSPAEASGLRAQDRIVEVNGVCMEGKQHGDVVSAIRAGGDETKLLVVDRETDEFFMNSS
B4: GST-KIAA1719 PDZ domain 3 (protein)
chain: MSPILGYWKIKGLVQPTRLLLEYLEEKYEEHLYERDEGDKWRNKKFELGLEFPNLPYYIDGDVKLTQSMAIIRYIADKHNMLGGCPKERAEISMLEGAVLDIRYGVSRIAYSKDFETLKVDFLSKLPEMLKMFEDRLCHKTYLNGDHVTHPDFMLYDALDVVLYMDPMCLDAFPKLVCFKKRIEAIPQIDKYLKSSKYIAWPLQGWQATFGGGDHPPKSDLIEGRIQIVHTETTEVVLCGDPLSGFGLQLQGGIFATETLSSPPLVCFIEPDSPAERCGLLQVGDRVLSINGIATEDGTMEEANQLLRDAALAHKVVLEVEFDVAESV
B5: GST-CARD14 PDZ domain 1 (protein)
chain: MSPILGYWKIKGLVQPTRLLLEYLEEKYEEHLYERDEGDKWRNKKFELGLEFPNLPYYIDGDVKLTQSMAIIRYIADKHNMLGGCPKERAEISMLEGAVLDIRYGVSRIAYSKDFETLKVDFLSKLPEMLKMFEDRLCHKTYLNGDHVTHPDFMLYDALDVVLYMDPMCLDAFPKLVCFKKRIEAIPQIDKYLKSSKYIAWPLQGWQATFGGGDHPPKSDLIEGRILSQVTMLAFQGDALLEQISVIGGNLTGIFIHRVTPGSAADQMALRPGTQIVMVDYEASEPLFKAVLEDTTLEEAVGLLRRVDGFCCLSVKVNTDGYKRL
B6: GST-KIAA0147 PDZ domain 1 (protein)
chain: MSPILGYWKIKGLVQPTRLLLEYLEEKYEEHLYERDEGDKWRNKKFELGLEFPNLPYYIDGDVKLTQSMAIIRYIADKHNMLGGCPKERAEISMLEGAVLDIRYGVSRIAYSKDFETLKVDFLSKLPEMLKMFEDRLCHKTYLNGDHVTHPDFMLYDALDVVLYMDPMCLDAFPKLVCFKKRIEAIPQIDKYLKSSKYIAWPLQGWQATFGGGDHPPKSDLIEGRILTLTILRQTGGLGISIAGGKGSTPYKGDDEGIFISRVSEEGPAARAGVRVGDKLLEVNGVALQGAEHHEAVEALRGAGTAVQMRVWRERMVEPENAEFIVTD
B7: GST-KIAA0807 PDZ domain 1 (protein)
chain: MSPILGYWKIKGLVQPTRLLLEYLEEKYEEHLYERDEGDKWRNKKFELGLEFPNLPYYIDGDVKLTQSMAIIRYIADKHNMLGGCPKERAEISMLEGAVLDIRYGVSRIAYSKDFETLKVDFLSKLPEMLKMFEDRLCHKTYLNGDHVTHPDFMLYDALDVVLYMDPMCLDAFPKLVCFKKRIEAIPQIDKYLKSSKYIAWPLQGWQATFGGGDHPPKSDLIEGRISALGSMRPPIIIHRAGKKYGFTLRAIRVYMGDSDVYTVHHMVWHVEDGGPASEAGLRQGDLITHVNGEPVHGLVHTEVVELILKSGNKVAISTTPLENSS
B8: GST-KIAA0147 PDZ domain 3 (protein)
chain: MSPILGYWKIKGLVQPTRLLLEYLEEKYEEHLYERDEGDKWRNKKFELGLEFPNLPYYIDGDVKLTQSMAIIRYIADKHNMLGGCPKERAEISMLEGAVLDIRYGVSRIAYSKDFETLKVDFLSKLPEMLKMFEDRLCHKTYLNGDHVTHPDFMLYDALDVVLYMDPMCLDAFPKLVCFKKRIEAIPQIDKYLKSSKYIAWPLQGWQATFGGGDHPPKSDLIEGRILEGPYPVEEIRLPRAGGPLGLSIVGGSDHSSHPFGVQEPGVFISKVLPRGLAARSGLRVGDRILAVNGQDVRDATHQEAVSALLRPCLELSLLVRRDPAEFIVTD
B9: GST-KIAA1095 PDZ domain 1 (protein)
chain: MSPILGYWKIKGLVQPTRLLLEYLEEKYEEHLYERDEGDKWRNKKFELGLEFPNLPYYIDGDVKLTQSMAIIRYIADKHNMLGGCPKERAEISMLEGAVLDIRYGVSRIAYSKDFETLKVDFLSKLPEMLKMFEDRLCHKTYLNGDHVTHPDFMLYDALDVVLYMDPMCLDAFPKLVCFKKRIEAIPQIDKYLKSSKYIAWPLQGWQATFGGGDHPPKSDLIEGRQGEETKSLTLVLHRDSGSLGFNIIGGRPSVDNHDGSSSEGIFVSKIVDSGPAAKEGGLQIHDRIIEVNGRDLSRATHDQAVEAFKTAKEPIVVQVLRRTPRTKMFTP
B10: GST-KIAA1634 PDZ domain 1 (protein)
chain: MSPILGYWKIKGLVQPTRLLLEYLEEKYEEHLYERDEGDKWRNKKFELGLEFPNLPYYIDGDVKLTQSMAIIRYIADKHNMLGGCPKERAEISMLEGAVLDIRYGVSRIAYSKDFETLKVDFLSKLPEMLKMFEDRLCHKTYLNGDHVTHPDFMLYDALDVVLYMDPMCLDAFPKLVCFKKRIEAIPQIDKYLKSSKYIAWPLQGWQATFGGGDHPPKSDLIEGRPSQLKGVLVRASLKKSTMGFGFTIIGGDRPDEFLQVKNVLKDGPAAQDGKIAPGDVIVDINGNCVLGHTHADVVQMFQLVPVNQYVNLTLCRGYPLPDDSED
B11: GST-Outer Membrane PDZ domain 1 (protein)
chain: MSPILGYWKIKGLVQPTRLLLEYLEEKYEEHLYERDEGDKWRNKKFELGLEFPNLPYYIDGDVKLTQSMAIIRYIADKHNMLGGCPKERAEISMLEGAVLDIRYGVSRIAYSKDFETLKVDFLSKLPEMLKMFEDRLCHKTYLNGDHVTHPDFMLYDALDVVLYMDPMCLDAFPKLVCFKKRIEAIPQIDKYLKSSKYIAWPLQGWQATFGGGDHPPKSDLIEGRLLTEEEINLTRGPSGLGFNIVGGTDQQYVSNDSGIYVSRIKENGAAALDGRLQEGDKILSVNGQDLKNLLHQDAVDLFRNAGYAVSLRVQHRLQVQNGIHS
B12: GST-MAGI 1 PDZ domain 2 (protein)
chain: MSPILGYWKIKGLVQPTRLLLEYLEEKYEEHLYERDEGDKWRNKKFELGLEFPNLPYYIDGDVKLTQSMAIIRYIADKHNMLGGCPKERAEISMLEGAVLDIRYGVSRIAYSKDFETLKVDFLSKLPEMLKMFEDRLCHKTYLNGDHVTHPDFMLYDALDVVLYMDPMCLDAFPKLVCFKKRIEAIPQIDKYLKSSKYIAWPLQGWQATFGGGDHPPKSDLIEGRPSELKGKFIHTKLRKSSRGFGFTVVGGDEPDEFLQIKSLVLDGPAALDGKMETGDVIVSVNDTCVLGHTHAQVVKIFQSIPIGASVDLELCRGYPLPFDPDDPN
B13: GST-Magi2 PDZ domain 1, Q86UL8 408-511 (protein)
chain: MSPILGYWKIKGLVQPTRLLLEYLEEKYEEHLYERDEGDKWRNKKFELGLEFPNLPYYIDGDVKLTQSMAIIRYIADKHNMLGGCPKERAEISMLEGAVLDIRYGVSRIAYSKDFETLKVDFLSKLPEMLKMFEDRLCHKTYLNGDHVTHPDFMLYDALDVVLYMDPMCLDAFPKLVCFKKRIEAIPQIDKYLKSSKYIAWPLQGWQATFGGGDHPPKSDLIEGRREKPLFTRDASQLKGTFLSTTLKKSNMGFGFTIIGGDEPDEFLQVKSVIPDGPAAQDGKMETGDVIVYINEVCVLGHTHADVVKLFQSVPIGQSVNLVLCRGYP
B14: GST-KIAA0973 #288.2 PDZ domain 1 (protein)
chain: MSPILGYWKIKGLVQPTRLLLEYLEEKYEEHLYERDEGDKWRNKKFELGLEFPNLPYYIDGDVKLTQSMAIIRYIADKHNMLGGCPKERAEISMLEGAVLDIRYGVSRIAYSKDFETLKVDFLSKLPEMLKMFEDRLCHKTYLNGDHVTHPDFMLYDALDVVLYMDPMCLDAFPKLVCFKKRIEAIPQIDKYLKSSKYIAWPLQGWQATFGGGDHPPKSDLIEGRGLRSPITIQRSGKKYGFTLRAIRVYMGDTDVYSVHHIVWHVEEGGPAQEAGLCAGDLITHVNGEPVHGMVHPEVVELILKSGNKVAVTTTPFE
B15: GST-NeDLG PDZ domain 2 (protein)
chain: MSPILGYWKIKGLVQPTRLLLEYLEEKYEEHLYERDEGDKWRNKKFELGLEFPNLPYYIDGDVKLTQSMAIIRYIADKHNMLGGCPKERAEISMLEGAVLDIRYGVSRIAYSKDFETLKVDFLSKLPEMLKMFEDRLCHKTYLNGDHVTHPDFMLYDALDVVLYMDPMCLDAFPKLVCFKKRIEAIPQIDKYLKSSKYIAWPLQGWQATFGGGDHPPKSDLIEGRITLLKGPKGLGFSIAGGIGNQHIPGDNSIYITKIIEGGAAQKDGRLQIGDRLLAVNNTNLQDVRHEEAVASLKNTSDMVYLKVAKPGSLE

For the first assay, the target named is HPV16 E6 C-terminal PDZ ligand (PL) peptide, biotinylated (human papillomavirus type 16). Kind of assay: G assay ELISA; immobilised GST-PDZ, biotin-peptide 10 uM.
As to B1, the Ave OD is 0.347 A450 nm and the OD S/N (ratio vs GST only) stood at 2.44.
B2: the Ave OD turned out to be 0.343 A450 nm and the OD S/N (ratio vs GST only) came to 1.55.
With B3, the Ave OD came out at 0.345 A450 nm and the OD S/N (ratio vs GST only) turned out to be 1.99.
As to B4, the Ave OD came out at 0.346 A450 nm and the OD S/N (ratio vs GST only) is 1.65.
For B5, the Ave OD was found to be 0.342 A450 nm and the OD S/N (ratio vs GST only) was 1.52.

The target of a further assay is HPV E6 #16 PDZ ligand peptide (C-terminal peptide of the E6 protein of HPV 16) (HPV 16). Kind of assay: G assay ELISA, immobilised GST-PDZ, biotin peptide 10 uM. For orientation: An ELISA detects its analyte on a solid surface through an enzyme-linked reagent.
As to B6, the Ave OD is 3.76 A450 nm and 2.15 A450 nm; the OD S/N (ratio to GST-only well) was 21.3 and 8.71.
Take B7: the OD S/N (ratio to GST-only well) is 23.2 and 11.4.
B8: the Ave OD was 2.08 A450 nm and 1.07 A450 nm; the OD S/N (ratio to GST-only well) is 11.8 and 4.35.
For B9, the Ave OD is 2.7 A450 nm and 1.71 A450 nm; the OD S/N (ratio to GST-only well) is 13.1 and 7.96.
Take B10: the OD S/N (ratio to GST-only well) was 19 and 19.4.
Still for that read-out and setting: with B11 the figure was 11.4 and 6.25.
With B12, the Ave OD was 4.11 A450 nm and the OD S/N (ratio to GST-only well) is 19.5.
As for B13, the OD S/N (ratio to GST-only well) is 11.6 and 7.23.
For the molecule B14, the OD S/N (ratio to GST-only well) was 16.4 and 10.1.
B15: the Ave OD was 1.12 A450 nm and the OD S/N (ratio to GST-only well) amounted to 3.99.
